# Results taken from PubChem BioAssay AID493033 (ICCB-Longwood Screening Facility, Harvard Medical School, 2011).
# Sequences of proteins named here, by UniProt entry; tags and fusion partners are left off.
# UniProt P9WFX0, whole entry: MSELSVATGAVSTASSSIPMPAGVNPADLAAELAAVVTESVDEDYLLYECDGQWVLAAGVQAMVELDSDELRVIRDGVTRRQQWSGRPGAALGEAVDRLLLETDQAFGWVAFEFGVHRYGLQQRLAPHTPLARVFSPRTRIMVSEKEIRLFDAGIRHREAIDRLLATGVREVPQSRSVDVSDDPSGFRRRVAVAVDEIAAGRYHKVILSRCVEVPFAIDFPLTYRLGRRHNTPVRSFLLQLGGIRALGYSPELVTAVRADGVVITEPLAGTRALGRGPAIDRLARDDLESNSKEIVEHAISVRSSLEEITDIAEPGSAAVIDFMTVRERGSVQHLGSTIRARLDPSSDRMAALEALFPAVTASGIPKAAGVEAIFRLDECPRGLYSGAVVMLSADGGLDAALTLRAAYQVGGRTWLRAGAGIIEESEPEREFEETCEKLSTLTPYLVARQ
# The list shows a part of the results, in another mix than the full data. Active and inactive are the calls of the source. Rule as the data show it: active = inhibition mostly above about 56% (no sharp cut-off); inactive = mostly below about 77%.
# Biological target: Salicylate synthase (Mycobacterium tuberculosis (strain CDC 1551 / Oshkosh)) (UniProt P9WFX0)
# Test: inhibitors of M. tuberculosis MbtI – biochemical, fluorescence intensity, primary screen (AID 493033)
# Details: purified MbtI enzyme, fluorescence intensity read-out; hits give high values; concentration not given here
row,Structure (SMILES),inhibition
1,Cc1ccccc1NP(C)(=O)Nc1ccccc1C,inactive: -3.2%
2,C/C1=C2N=C(/C=C3N=C(/C(C)=C4\[N-][C@@](C)([C@@H]5N=C1[C@](C)(CCC(=O)NC[C@@H](C)OP(=O)([O-])O[C@H]1[C@@H](O)[C@@H](n6cnc7cc(C)c(C)cc76)O[C@@H]1CO)[C@H]5CC(N)=O)[C@@](C)(CC(N)=O)[C@@H]4CCC(N)=O)[C@@](C)(CC(N)=O)[C@@H]\3CCC(N)=O)C(C)(C)[C@@H]/2CCC(N)=O.[C-]#N.[Co+3],inactive: -1.35%
3,O=P(Nc1nccs1)(c1ccccc1)c1ccccc1,inactive: -5.4%
4,Nc1nonc1OCc1nonc1COc1nonc1N,inactive: 0.8%
5,C=CCN1CCN(CCOC(=O)C(O)(c2ccccc2)c2ccccc2)CC1,inactive: -1.75%
6,CC1CCC(C(C)C)C(OP(=O)(Nc2nccs2)c2ccccc2)C1 (stereo not drawn),inactive: -9.8%
7,COc1cc2c(cc1NP(C)(=O)Oc1ccccc1)oc1ccccc12 (stereo not drawn),inactive: 124%
8,COC(=O)c1cc2c(s1)N=C(c1ccccc1)N(C)P2(=O)N1CCOCC1 (stereo not drawn),inactive: 2.65%
9,O=C(OCC1CN(Cc2ccccc2)CCO1)C(O)(c1ccccc1)c1ccccc1 (stereo not drawn),inactive: -10.6%
10,O=C(OCCN1CCN(CCOCc2ccccc2)CC1)C(O)(c1ccccc1)c1ccccc1,inactive: 0%
11,Cc1cc(NC2=NC3C(C(=O)N(C)C(=O)N3C)N2C)n(-c2ccccc2)n1 (stereo not drawn),inactive: -0.3%
12,O=P1(Nc2nncs2)C=C(c2ccccc2)SC(c2ccccc2)=C1,inactive: 35.8%
13,O=P1(Nc2nc3ccc(Cl)cc3s2)COc2ccccc2O1 (stereo not drawn),inactive: -8.4%
14,CP(=O)(Nc1ccccn1)Oc1ccccc1 (stereo not drawn),inactive: 37.1%
15,CCOP(OCC)N1CCOCC1,inactive: -6.05%
16,O=C(COC(=O)C(O)(c1ccccc1)c1ccccc1)N1CCCCC1,inactive: 2.1%
17,CN(C(=O)Cc1ccc(Cl)c(Cl)c1)[C@H]1CCCC[C@@H]1N1CCCC1,inactive: -18.1%
18,CCOP(=Nc1nc2ccccc2n2nnnc12)(OCC)OCC,inactive: 186%
19,CP(=O)(Nc1ccc(Cl)cc1)Oc1ccc(F)cc1 (stereo not drawn),inactive: -5.4%
20,CCc1ccc(OP(C)(=O)Nc2cccnc2)cc1 (stereo not drawn),inactive: 5.5%
21,OCCSCCO,inactive: -12.6%
22,CCOC(=O)c1ccc(NP(C)(=O)Oc2ccc(OC)cc2)cc1 (stereo not drawn),inactive: 7.65%
23,Cc1cccc(NP(C)(=O)Oc2ccccc2)c1 (stereo not drawn),inactive: 2.2%
24,CP(=O)(NC(=O)Nc1ccccc1)Oc1ccccc1 (stereo not drawn),inactive: -10.1%

row,Structure (SMILES),inhibition
1,COP1(=S)c2c(C)nn(-c3ccccc3)c2N=C(c2ccccc2)N1C1CC1 (stereo not drawn),inactive: 11.6%
2,COc1ccccc1OP(C)(=O)Nc1ccccc1 (stereo not drawn),inactive: -0.55%
3,CP(=O)(Nc1ccc(Cl)cc1)Oc1ccccc1 (stereo not drawn),inactive: -11.8%
4,COP1(=S)N=C2c3ccccc3CN2c2cc(N(C)C)ccc21 (stereo not drawn),inactive: 33.1%
5,Cc1cc(C)cc(OP(C)(=O)NCc2ccccc2)c1 (stereo not drawn),inactive: -9.6%
6,Nc1nonc1OCCOc1nonc1N,inactive: -11.9%
7,CC1=Nc2ccc(C(F)(F)F)cc2C1(C)C,inactive: 15.8%
8,O=C(O)C1(O)c2ccccc2-c2ccccc21,inactive: -9.8%
9,O=P1(Nc2nccs2)CC=CC1,inactive: -1.2%
10,O=C(OC1CN2CCC1CC2)C12CC3CC(CC(C3)C1)C2 (stereo not drawn),inactive: 3.7%
11,Cc1cccc(OCC(=O)OC2CN3CCC2CC3)c1 (stereo not drawn),inactive: -3.35%
12,O=C(OC1CN2CCC1CC2)c1ccc(Cl)cc1 (stereo not drawn),inactive: -7.1%
13,CCOP1(=S)c2c(C)nn(CCC#N)c2N=C(c2ccc(F)cc2)N1C (stereo not drawn),inactive: 47.3%
14,O=P1(Nc2nc3ccc(Cl)cc3s2)COc2ccccc2OC1,inactive: -2.2%
15,NC(=O)Nc1ccc([As](=O)(O)O)cc1,inactive: 0.5%
16,NC(=O)COC(=O)C1(O)c2ccccc2-c2ccccc21,inactive: -9.2%
17,Cc1cc(C)cc(OP(C)(=O)Nc2ccc(OC(C)C)cc2)c1 (stereo not drawn),inactive: -44.2%
18,CCSP(=O)(c1ccccc1)c1ccccc1,inactive: -15.8%
19,Cc1nn(CCC#N)c2c1P(=O)(Nc1ccccc1Cl)N(C)C(c1ccc(F)cc1)=N2 (stereo not drawn),inactive: 17.9%
20,CP(=O)(N1CCOCC1)N1CCOCC1,inactive: -6.85%
21,Cc1ccc(C(=O)OC2CN3CCC2CC3)cc1 (stereo not drawn),inactive: -11.7%
22,Cc1nn(-c2ccccc2)c2c1P(=O)(N1CCOCC1)N(C)C(c1ccccc1)=N2 (stereo not drawn),inactive: 8%
23,Nc1nonc1-c1no[n+]([O-])c1-c1nonc1N,inactive: 5.95%
24,O=P1(Nc2ccccn2)COc2ccccc2OC1,inactive: -4.3%
